Results deposited as PubChem BioAssay AID504761 (Drosophila RNAi Screening Center, 2011).
In all, the deposit lists about 22,000 reagents; below is an unselected part of those with a known target gene and a result. In the full data, 116 (0.52%) were called active. 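Calls depend on retest data that are not deposited; infection was ranked per plate without normalising between plates; the unit of the infection score is not given.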 The raw values are shown without normalisation. Reagents against one gene are numbered here. No sequences are given here. Not stated in the record: the amount of reagent, the time to read-out.

Purpose: 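Genome-wide fly cell screen for genes dengue virus requires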 (primary screen)
Cell system: D.Mel-2 cells from Drosophila
Reagents: long dsRNA against Drosophila genes
Treatment: infection with dengue virus type 2; dose and infection time not stated
Detection: 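Cells stained for dengue envelope protein and imaged; percent of infected cells per well on duplicate plates, ranked by infection, with stained nuclei counted for cell number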
Direction: infection score: higher = more virus-infected cells; cell count: higher = more cells in the well
Active means: 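Very low infection ranking in both replicate wells (chance probability at most 0.065), then a retest showing infection dropped 1.5-fold or more at p below 0.05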
Meaning of the calls: active = confirmed: knock-down lowers infection; inactive = not picked or not confirmed

no.	gene	reagent	infection score, replicate 1	infection score, replicate 2	cell count, replicate 1	cell count, replicate 2	Call
1	CG31347	1	1.59	4.06	6171	6839	inactive
2	CG11658	1	1.61	2.97	5965	6017	inactive
3	CG7974	1	14.3	11.5	5260	5458	inactive
4	CG7974	2	3.58	2.47	6166	6037	inactive
5	CG17598	1	9.03	0.89	6680	6377	inactive
6	CG15784	1	1.67	3.75	6151	6846	inactive
7	CG15784	2	9.61	9.34	6709	6658	inactive
8	l(1)G0289	1	6	1.32	6648	6870	inactive
9	l(1)G0289	2	8.66	18	1132	5931	inactive
10	Gld2	1	0.93	1.82	5929	6703	inactive
11	Gld2	2	15.9	9.56	5286	6927	inactive
12	Ca-beta	1			595	495	inactive
13	Ca-beta	2		4.47	412	739	inactive
14	Ca-beta	3			425	409	inactive
15	Ca-beta	4	1.23	4.04	6035	6443	inactive
16	Ca-beta	5	11.8	21.4	6317	5991	inactive
17	Lip2	1	3.65	6.42	6380	6353	inactive
18	Lip2	2	2.64	0.21	6552	6313	inactive
19	Wdr62	1	4.44	2.42	6617	6244	inactive
20	Wdr62	2	9.17	2.51	5842	5967	inactive

The list goes on, starting with the last 3 of the part before.
no.	gene	reagent	infection score, replicate 1	infection score, replicate 2	cell count, replicate 1	cell count, replicate 2	Call
18	Lip2	2	2.64	0.21	6552	6313	inactive
19	Wdr62	1	4.44	2.42	6617	6244	inactive
20	Wdr62	2	9.17	2.51	5842	5967	inactive
21	CG3803	1	16.7	13.2	5139	4775	inactive
22	CG4645	1	1.18	1.12	6511	6782	inactive
23	CG4645	2	12.7	16	6065	5663	inactive
24	Ctl1	1	0.69	0.95	5982	5924	inactive
25	tum	1	16.2	24.6	5010	2207	inactive
26	CG31459	1	1.85	1.1	5771	5356	inactive
27	js	1	1.09	1.44	6600	6114	inactive
28	Girdin	1	27.8	1.91	5837	5928	inactive
29	CG13921	1	1.48	2.66	6270	7282	inactive
30	CG13921	2	3.75	4.41	6483	6321	inactive
31	asf1	1	3.8	16.9	5309	5257	inactive
32	asf1	2	2.84	5.69	5385	5484	inactive
33	CG15550	1	6.03		6417	272	inactive
34	CG15550	2	9.74		1170	307	inactive
35	l(1)G0196	1	2.7	2.05	6258	6328	inactive
36	l(1)G0196	2	6.6	6.99	6728	6525	inactive
37	l(1)G0196	3	3.48	0.83	6124	5677	inactive
38	CG7252	1	16.5	16.2	5625	5642	inactive
39	CG7252	2	4.67	3.17	5550	5642	inactive
40	Pex2	1	4.47	6.96	6892	6825	inactive
41	CG4409	1	7.86	19.9	6731	6190	inactive
42	CG4409	2	18.5	5.64	5461	5814	inactive
43	kl-2	1	5.56	1.22	6201	5898	inactive
44	CG31128	1	2.54	1.63	6306	6214	inactive
45	CG6912	1	5.46	27.1	5149	3577	inactive
46	CG12990	1	10.9	3.71	6759	6821	inactive
47	CG5676	1	1.66	1.44	6728	6383	inactive
48	Zip42C.2	1	1.4	16.1	6848	5434	inactive
49	Zip42C.2	2	6.92	7.55	1793	5881	inactive
50	CG31510	1	1.27	2.9	5372	6274	inactive
51	Nadk1a	1	4.73	1.2	6003	5658	inactive
52	Nadk1a	2	12	6.63	5424	6279	inactive
53	CG11357	1	2.1	1.54	6382	6287	inactive
54	CG8517	1	1.24	4.81	6107	5901	inactive
55	CG1172	1	9.76	7.6	6873	6991	inactive
56	CG1172	2	1.44	3.42	6533	6260	inactive
57	CG1172	3	3.84	11	6045	5943	inactive
58	bou	1	1.74	2.56	6191	6794	inactive
